Compound potency records, mixed from different reports. Data source: NIAID ChemDB in PubChem.

Common to all: whole-cell or culture tests; agent: Mycobacterium tuberculosis

A number after MIC or MFC names an inhibition level or a share of isolates. Neighbouring rows are from separate reports. Two numbers with a dash give a range or band. MIC bound: limit read from a one-dose screen. An empty or dashed field is not shown. Inhibition is in % at the dose shown (toxicity tests: loss of growth or viability).

compound | strain | endpoint | read by | changes | tested at | result
CCN(CC)CCOc1ccc(N=Nc2ccc(N)nc2N)cc1 | H37Rv | MIC | BACTEC | - | - | ≥12.5 µg/mL
CCCCCCCOc1ccc(NC(=O)OCC[NH+]2CCCC2)cc1 | My 331/88 | MIC | - | - | - | 16 µM
Cc1cc(O)c(-c2ccccc2)c(=O)[nH]1 | H37Ra | MIC | - | - | - | 16–32 µg/mL
CC(=O)N1C/C(=N\NC(N)=S)c2ccccc21 | H37Rv | MIC | broth dilution | - | - | 0.2 µg/mL
CC(=O)O[C@H]1C[C@@]2(C)[C@@H](C[C@@H](O)[C@H]3[C@@]4(C)CC[C@@H](O)[C@@H](C)[C@@H]4CC[C@@]32C)/C1=C(\CCC=C(C)C)C(=O)O | H37Rv | MIC99 | GFP | - | - | 0.3 µM
CCn1cc(C(=O)O)c(=O)c2cc(F)c(N3CCN(C)CC3)cc21 | CIPT 140010072 | MIC | - | - | - | 5 µg/mL
CC(=O)Nc1cc(C)[nH]c(=O)c1-c1ccccc1 | H37Ra | MIC | - | - | - | >256 µg/mL
COc1cccc(/C=N/NC(=O)c2sc3ccc(Oc4ccccc4)cc3c2Cl)c1 | H37Rv | inhibition | - | - | 6.25 µg/mL | 0%
CO[C@H]1/C=C/O[C@@]2(C)Oc3c(C)c(O)c4c(O)c(c(/C=N/N5CCN(C)CC5)c(O)c4c3C2=O)NC(=O)/C(C)=C\C=C\[C@H](C)[C@H](O)[C@@H](C)[C@@H](O)[C@@H](C)[C@H](OC(C)=O)[C@@H]1C | CDC1551 | MIC | BACTEC | - | - | 0.063 µg/mL
CCn1cc(C(=O)O)c(=O)c2cc(F)c(N3CCNCC3)nc21 | Isolate 870729 | MIC | - | - | - | 5 µg/mL
CCOc1ccccc1NC(=O)OCC[NH+]1CCCC1 | My 331/88 | MIC | - | - | - | >1000 µM
COc1ccc(CCN2C(=O)C(=O)N(c3ccc(C)cc3)C2=O)cc1OC | H37Rv | MIC bound | BACTEC | - | - | >12.5 µg/mL
CCOc1ccc(NC(=O)OCC[NH+]2CCCC2)cc1 | My 331/88 | MIC | - | - | - | >1000 µM
O=C(Cc1cccs1)N/N=C/c1ccc(Br)cc1 | H37Rv (ATCC 27294) | MIC | resazurin | - | - | >100 µg/mL
CCCCCOc1ccc(NC(=O)OCC[NH+]2CCCC2)cc1 | My 331/88 | MIC | - | - | - | 62.5 µM
CSC(=S)N/N=C\C(O)C(O)C(O)C(O)CO | H37Rv | MIC | - | - | - | 8 µg/mL
Cc1ccc([C@H]2SC(C)C(=O)N2c2nc(N3CCOCC3)n[nH]2)cc1 | H37Rv | MIC | resazurin | - | - | 1.56 µg/mL
Cc1ccc(/C=C/C(=O)NN)cc1 | BCG | MIC | - | - | - | 5 µg/mL
CCOC(=O)NC1C2CC(=O)OC(O2)C1OC(C)=O | H37Rv | inhibition | BACTEC | - | 12.5 µg/mL | 12%
CC1S[C@H](c2ccccc2)N(c2nc(N3CCOCC3)n[nH]2)C1=O | H37Rv | MIC | resazurin | - | - | 8 µg/mL
COc1ccc(CCN)cc1 | BCG | MIC | - | - | - | 100 µg/mL
NNC(=O)c1ccncc1 | MDR-TB | MIC | agar | - | - | 45.57 µM
O=C(N/N=C/c1cccc(Br)c1)c1sc2ccc(Oc3ccccc3)cc2c1Cl | H37Rv | inhibition | - | - | 6.25 µg/mL | 0%
COc1cccc(C(N)=Nc2nc(-c3ccccn3)cc3ccccc23)c1 | H37Rv | MIC | - | - | - | 0.25 µg/mL
NNC(=O)c1ccncc1 | H37Rv (ATCC 27294) | MIC | broth dilution | - | - | 0.03 µg/mL
CCCCCCCCCCCCC(C(=O)O)c1ccccc1 | BCG | MIC | - | - | - | 100 µg/mL
O=C(Cc1cccs1)N/N=C/c1cc(O)ccc1O | H37Rv (ATCC 27294) | MIC | resazurin | - | - | >100 µg/mL
CCCCS(=O)(=O)Nc1ccc2[nH]c(C(=O)NCCCc3ccccc3)c(C)c2c1 | H37Rv | MIC90 | resazurin | - | - | >100 µM
NC(=Nc1ccc2ccc3cccnc3c2n1)c1ccccc1 | H37Rv | MIC | - | - | - | 1–4 µg/mL
COC(=O)C12OC[C@]34[C@H]([C@@H](O)[C@@H]1O)[C@@]1(C)C=C(O[C@@H]5O[C@H](CO)[C@@H](O)[C@H](O)[C@H]5O)C(=O)[C@@H](C)[C@@H]1C[C@H]3OC(=O)[C@H](OC(=O)/C=C(\C)C(C)C)[C@@H]24 | H37Rv | MIC | BACTEC | - | - | ≥12.5 µg/mL
CCCCS(=O)(=O)Nc1ccc2[nH]c(C(=O)Nc3ccc4ccccc4c3)c(C)c2c1 | H37Rv | MIC90 | resazurin | - | - | 12.5 µM
C=C(CNCCCCCCCCCCCCC)N(CCC[NH3+])CC(=O)N(CC(=O)N(CC(=O)N(CCCCN)CC(N)=O)[C@H](C)c1ccccc1)[C@@H](C)c1ccccc1 | H37Ra | MIC | resazurin | - | - | 6.6 µM
CCOC(=O)c1cc(-c2ccc(Cl)cc2)n(CC(=O)N/N=C/c2ccccc2)c1C | H37Rv | MIC | - | - | - | >6.25 µg/mL
O=C1CS[C@H](c2ccccc2)N1c1nc(N2CCOCC2)n[nH]1 | H37Rv | MIC | resazurin | - | - | 16 µg/mL
NC(=Nc1nc(-c2ccccn2)cc2ccccc12)c1ccccn1 | H37Rv | MIC | - | - | - | 0.25 µg/mL
CSCSCC(CO)NC(=O)/C=C/c1c(C)[nH]c(=O)[nH]c1=O | H37Rv | MIC bound | BACTEC | - | - | >12.5 µg/mL
O=[N+]([O-])c1ccc(CN2CCC3(CC2)CCN(c2ccc(OC(F)(F)F)cc2)CC3)o1 | Clinical Isolate 16833 | MIC90 | resazurin | INH RFP resistant | - | 4.95 µg/mL
NNC(=O)CSc1ncnc2nc[nH]c12 | H37Rv | inhibition | BACTEC | - | 12.5 µg/mL | 6%
O=[N+]([O-])c1ccc(CN2CC3CN(c4ccc(OC(F)(F)F)cc4)CC3C2)o1 | Clinical Isolate 16833 | MIC90 | resazurin | INH RFP resistant | - | 6.3 µg/mL
Cc1ccc([C@H]2SCC(=O)N2c2nc(N3CCOCC3)n[nH]2)cc1 | H37Rv | MIC | resazurin | - | - | 3.13 µg/mL
COc1ccccc1/C=N/NC(=O)Cc1cccs1 | H37Rv (ATCC 27294) | MIC | resazurin | - | - | >100 µg/mL
COc1ccc(/C=C/C(=O)NN)cc1 | BCG | MIC | - | - | - | 2 µg/mL
CCCCCCCCOc1ccccc1NC(=O)OCC[NH+]1CCCC1 | My 331/88 | MIC | - | - | - | 32 µM
NNC(=O)/C=C/c1ccc(O)cc1 | BCG | MIC | - | - | - | 5 µg/mL
CC(C)=NNC(=O)CNc1cccc(C(F)(F)F)c1 | H37Rv | MIC | BACTEC | - | - | ≥12.5 µg/mL
CCCCCCOc1ccc(NC(=O)OCC[NH+]2CCCC2)cc1 | My 331/88 | MIC | - | - | - | 32 µM
O=c1[nH]c2c(Cl)c(Cl)c(Cl)c(Cl)c2[nH]c1=O | H37Rv | MIC bound | BACTEC | - | - | >6.25 µg/mL
NNC(=O)/C=C/c1ccc(Cl)cc1 | BCG | MIC | - | - | - | 2 µg/mL
O=C(Cc1ccccc1[N+](=O)[O-])N1COC(c2sc3ccc(Oc4ccccc4)cc3c2Cl)=N1 | H37Rv | inhibition | - | - | 6.25 µg/mL | 3%
CCCCS(=O)(=O)Nc1ccc2[nH]c(C(=O)OCC)c(C)c2c1 | DRM167 16x6 | MIC90 | resazurin | I122S DG167-resistant | - | 12.5 µM
NC1=NN(c2ccccc2)C(=O)C1C(=O)C(=O)Nc1ccc(Cl)cc1 | H37Rv | inhibition | resazurin | - | 6.25 µg/mL | 17%
CC(=O)Oc1ccc(Oc2c(-c3ccc4ccccc4c3)nc3ccc(Cl)cc3c2-c2ccccc2)cc1 | H37Rv | MIC | agar | - | - | 50 µM
[O-][n+]1ccccc1SSc1cccc[n+]1[O-] | H37Rv | MIC90 | resazurin | - | - | <0.039 µg/mL
COc1ccc(-c2cc3cc(CCCOC4OC(COC5OCC(O)C(O)C5O)C(O)C(O)C4O)cc(OC)c3o2)cc1OC | H37Rv | inhibition | BACTEC | - | 12.5 µg/mL | 37%
CC1COc2c(N3CCN(C)CC3)c(F)cc3c(=O)c(C(=O)O)cn1c23 | 25 strains | MIC50 | - | - | - | 0.78 µg/mL
O=C1CS[C@H](c2ccc3c(c2)OCO3)N1c1nc(N2CCOCC2)n[nH]1 | H37Rv | MIC | resazurin | - | - | <1 µg/mL
CCCCCCCCOc1ccc(NC(=O)OCC[NH+]2CCCC2)cc1 | My 331/88 | MIC | - | - | - | 16 µM
CCOC(=O)c1[nH]c(C)c(/C=N\NC(=O)c2ccncc2)c1C | H37Rv | MIC | - | - | - | <0.1 µg/mL
CCCCCCOc1cccc(NC(=O)OCC[NH+]2CCCC2)c1 | My 331/88 | MIC | - | - | - | 32 µM
O=[N+]([O-])c1ccc(CN2CC3CN(c4cccc(C(F)(F)F)c4)CC3C2)o1 | Clinical Isolate 16995 | MIC90 | resazurin | INH RFP resistant | - | <0.016 µg/mL
CC1S[C@H](c2ccc3c(c2)OCO3)N(c2nc(N3CCOCC3)n[nH]2)C1=O | H37Rv | MIC | resazurin | - | - | 4 µg/mL
CCc1ccc2ccc3ccc(CC)nc3c2n1 | H37Rv | inhibition | BACTEC | - | 12.5 µg/mL | 90%
CCCCS(=O)(=O)Nc1ccc2[nH]c(C#N)c(C)c2c1 | DRM167 8x2 | MIC90 | resazurin | A119T DG167-resistant | - | >100 µM
CCOC(=S)SSC(=S)NCCNC(=S)SSC(=S)OCC | H37Rv | MIC | BACTEC | - | - | 6.25 µg/mL
CCCCS(=O)(=O)Nc1ccc2[nH]c(C(=O)N3CCN(C(=O)OC(C)(C)C)CC3)c(C)c2c1 | H37Rv | MIC90 | resazurin | - | - | 12–25 µM
N#Cc1cccc(/C=C/C(=O)NN)c1 | BCG | MIC | - | - | - | 5 µg/mL
CCOC(=O)c1cc(-c2ccc(Cl)cc2)n(CCC(=O)N/N=C/c2[nH]c(C)c(C(C)=O)c2C)c1C | H37Rv | inhibition | - | - | 6.25 µg/mL | 100%
CC[C@@H](CO)NCCN[C@@H](CC)CO | Harlingen | MIC | broth dilution | - | - | 8 µg/mL
CN1CCN(c2n[nH]c(N3C(=O)CS[C@@H]3c3ccccc3)n2)CC1 | H37Rv | MIC | broth dilution | - | - | 8 µg/mL
CC1=CCC2N=C(c3ccccc3)CC2(C)C1=O | H37Rv | inhibition | BACTEC | - | 6.25 µg/mL | 0%
CC1S[C@H](c2ccc(Cl)cc2)N(c2nc(N3CCN(C)CC3)n[nH]2)C1=O | H37Rv | MIC | resazurin | - | - | 2 µg/mL
OC1(c2ccccc2)c2ccccc2N=C2N(C3=NCCN3)CCN21 | H37Rv | MIC bound | resazurin | - | - | >6.25 µg/mL
O=C(NC1C(=O)C(Cl)C1c1cccc(Br)c1)c1sc2ccc(Oc3ccccc3)cc2c1Cl | H37Rv | inhibition | - | - | 6.25 µg/mL | 0%
O=C(Nc1ncc([N+](=O)[O-])s1)c1cccnc1 | H37Rv | MIC | - | - | - | 12.5 µg/mL
NC(=S)N/N=C\c1c(C(=O)O)[nH]c2ccc(Cl)cc12 | H37Rv | MIC | broth dilution | - | - | 0.2 µg/mL
Cc1nn(C)c(Cl)c1C(=O)Nc1ccccc1 | H37Rv | inhibition | BACTEC | - | 12.5 µg/mL | 0%
COc1ccc2[nH]c(C(=O)O)c(/C=N\NC(N)=S)c2c1 | H37Rv | MIC | broth dilution | - | - | 0.2 µg/mL
OC[C@H]1O[C@@H](c2ccc(O)cc2O)[C@H](O)[C@@H]1O | H37Rv | MIC bound | BACTEC | - | - | >12.5 µg/mL
CN[C@@H]1[C@H](O[C@H]2[C@H](O[C@H]3[C@H](O)[C@@H](O)[C@H](N=C(N)N)[C@@H](O)[C@@H]3N=C(N)N)O[C@@H](C)[C@]2(O)C=O)O[C@@H](CO)[C@H](O)[C@H]1O | H37Rv Erdman | MIC | broth dilution | - | - | 0.125–0.25 µg/mL
COC(=O)c1ccccc1NC(=O)C(=O)Cc1nc2c3c(ccc2[nH]c1=O)C(=O)c1ccccc1C3=O | H37Rv | inhibition | resazurin | - | 6.25 µg/mL | 53%
CC(C)(C)c1cccc(N2CCC3(CCN(Cc4ccc([N+](=O)[O-])o4)CC3)CC2)c1 | Clinical Isolate 16833 | MIC90 | resazurin | INH RFP resistant | - | >10 µg/mL
Cc1cc(O)c(-c2ccc([N+](=O)[O-])cc2)c(=O)[nH]1 | H37Ra | MIC | - | - | - | >256 µg/mL
NNC(=O)c1ccncc1 | H37Rv (ATCC 27294) | MIC | resazurin | - | - | 0.46 µM
CC(=O)O.Nc1nc(=O)nc2[nH]c3c4cccc5cccc(c3nc12)c54.O=S(=O)(O)O | H37Rv | MIC bound | BACTEC | - | - | >12.5 µg/mL
COc1ccc(-c2c(O)cc(C)[nH]c2=O)cc1 | H37Ra | MIC | - | - | - | >256 µg/mL

For reference, 8 entries again:

compound	strain	endpoint	read by	changes	tested at	result
CCc1ccc2ccc3ccc(CC)nc3c2n1	H37Rv	inhibition	BACTEC	-	12.5 µg/mL	90%
O=C(Cc1ccccc1[N+](=O)[O-])N1COC(c2sc3ccc(Oc4ccccc4)cc3c2Cl)=N1	H37Rv	inhibition	-	-	6.25 µg/mL	3%
CC(=O)Nc1cc(C)[nH]c(=O)c1-c1ccccc1	H37Ra	MIC	-	-	-	>256 µg/mL
CN[C@@H]1[C@H](O[C@H]2[C@H](O[C@H]3[C@H](O)[C@@H](O)[C@H](N=C(N)N)[C@@H](O)[C@@H]3N=C(N)N)O[C@@H](C)[C@]2(O)C=O)O[C@@H](CO)[C@H](O)[C@H]1O	H37Rv Erdman	MIC	broth dilution	-	-	0.125–0.25 µg/mL
COc1ccc2[nH]c(C(=O)O)c(/C=N\NC(N)=S)c2c1	H37Rv	MIC	broth dilution	-	-	0.2 µg/mL
NC(=Nc1ccc2ccc3cccnc3c2n1)c1ccccc1	H37Rv	MIC	-	-	-	1–4 µg/mL
CC1S[C@H](c2ccc3c(c2)OCO3)N(c2nc(N3CCOCC3)n[nH]2)C1=O	H37Rv	MIC	resazurin	-	-	4 µg/mL
CC(=O)Oc1ccc(Oc2c(-c3ccc4ccccc4c3)nc3ccc(Cl)cc3c2-c2ccccc2)cc1	H37Rv	MIC	agar	-	-	50 µM